Source: article PMC3364216
The comparison behind a weaker result is the experiment's own reference, which may not be listed here. For at least one entry, the source does not settle the construct or the ends of the probe. For part of these data: Protein sequences can lack the tags named with them.

The chains behind the UniProt entries cited, without tags or fusion partners. Where a name states a change or a piece, a line headed by the entry shows the natural chain unless it says otherwise.
UniProt Q49424: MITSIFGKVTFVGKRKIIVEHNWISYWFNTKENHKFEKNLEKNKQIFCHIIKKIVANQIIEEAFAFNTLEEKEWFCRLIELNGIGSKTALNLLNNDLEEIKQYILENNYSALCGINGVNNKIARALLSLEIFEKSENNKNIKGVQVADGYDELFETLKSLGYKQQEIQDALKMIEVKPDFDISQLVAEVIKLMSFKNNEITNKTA

Columns and labels:
[1] = target: RuvAMge (Mycoplasma genitalium G37 (ATCC 33530)) (UniProt Q49424); assay: EMSA; conditions: 20 mM Tris-HCl pH 7.5, 1 mM DTT, 1 mM EDTA, 12.3 nM DNA, 10 ul, on ice 10 min, 8% PAGE in 0.5x TBE, recombinant protein, residues 1-205, protein details: N-terminal H10 (pET-16b)
[2] = target: T1, RuvAMpn (Mycoplasma pneumoniae M129 (ATCC 29342)) (UniProt P75243); assay: EMSA; conditions: 10 mM Mg2+; 20 mM Tris-HCl pH 7.5, 1 mM DTT, 1 mM EDTA, 12.3 nM DNA, 10 ul, on ice 10 min; 8% PAGE in 0.5x TBE; +/- 10 mM Mg2+; recombinant protein; residues 1-206; protein details: N-terminal H10 (pET-16b); label: 5' 6-FAM on HJ11 (unlabeled as competitor); folded or branched DNA
T1 sequence (looked up): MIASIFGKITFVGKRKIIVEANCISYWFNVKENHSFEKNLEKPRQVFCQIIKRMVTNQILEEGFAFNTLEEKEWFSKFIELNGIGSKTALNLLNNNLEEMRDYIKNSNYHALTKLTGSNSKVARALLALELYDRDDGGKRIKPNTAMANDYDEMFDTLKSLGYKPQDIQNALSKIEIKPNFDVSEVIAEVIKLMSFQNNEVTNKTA

Row | Sequence | binding result ([1]; no Mg2+, considerably less efficient than HJ, +/- 10 mM …, label: 5' 6-FAM (unlabeled as competitor), single-stranded DNA) | binding result [2] | binding result ([1]; 10 mM Mg2+, +/- 10 mM Mg2+, label: 5' 6-FAM on HJ11 (unlabeled as competitor), folded or branched DNA)
1 | GCGACGTGATCACCAGATGATTGCTAGGCATGCTTTCCGCAAGAGAAGC [HJ11] | binds more weakly | – | –
2 | GCGACGTGATCACCAGATGATTGCTAGGCATGCTTTCCGCAAGAGAAGC / GGCTTCTCTTGCGGAAAGCATGCCTAGCAATCCTGTCAGCTGCATGGAAC / GGTTCCATGCAGCTGACAGGATTGCTAGGCTCAAGGCGAACTGCTAACGG / ACCGTTAGCAGTTCGCCTTGAGCCTAGCAATCATCTGGTGATCACGTCGC [HJ 1.1] | – | binds more weakly | binds more weakly
